Columns and labels:
[1] = system: Cryptococcus neoformans SLP-BC0012854; assay: In vitro study of inhibition of growth and lethality against yeast (MIC/MLC susceptibility test), isolate H; settings: 2nd pair of lines, isolate assigned by line order, tested form: iodide
[2] = system: Candida albicans KJP-000531594; assay: In vitro study of inhibition of growth and lethality against yeast (MIC/MLC susceptibility test), isolate C; settings: 1st pair of lines, tested form: iodide
[3] = system: Candida tropicalis ATCC 28707; assay: In vitro study of inhibition of growth and lethality against yeast (MIC/MLC susceptibility test), isolate B; assay type: cell-based; settings: 1st pair of lines, read at 48 hr, isolate assigned by line order, tested form: iodide
[4] = system: Candida albicans LH-000664533; assay: In vitro study of inhibition of growth and lethality against yeast (MIC/MLC susceptibility test), isolate D; assay type: cell-based; settings: 2nd pair of lines, read at 48 hr, isolate assigned by line order, tested form: iodide
[5] = system: Candida tropicalis ATCC 750; assay: In vitro study of inhibition of growth and lethality against yeast (MIC/MLC susceptibility test), isolate A; settings: 2nd pair of lines, read at 48 hr, isolate assigned by line order, tested form: iodide
[6] = system: Cryptococcus neoformans DLB-1027594CNC; assay: In vitro study of inhibition of growth and lethality against yeast (MIC/MLC susceptibility test), isolate G; assay type: cell-based; settings: 1st pair of lines, isolate assigned by line order, tested form: iodide

Structure (SMILES): C[n+]1c2c(cc3ccccc31)C(=O)OCCCCCCCCn1cc-2c2cc(OCc3ccccc3)ccc21
- Minimum Inhibitory Conc. (MIC), 48 hr. ([1]; read at 48 hr): 8 µg/mL
- Minimum Inhibitory Conc. (MIC), 72 hr. ([1]; read at 72 hr): 8 µg/mL
- Minimum Inhibitory Conc. (MIC), 24 hr. ([2]; read at 24 hr, isolate not given, assigned by line order and MLC of Table 4B): 2 µg/mL
- Minimum Inhibitory Conc. (MIC), 48 hr. ([2]; read at 48 hr, isolate assigned by line order): 4 µg/mL
- Minimum Inhibitory Conc. (MIC), 48 hr. [3]: 0.5 µg/mL
- Minimum Inhibitory Conc. (MIC), 48 hr. [4]: 4 µg/mL
- Minimum Inhibitory Conc. (MIC), 48 hr. [5]: 4 µg/mL
- Minimum Inhibitory Conc. (MIC), 48 hr. ([6]; read at 48 hr): 8 µg/mL
- Minimum Inhibitory Conc. (MIC), 72 hr. ([6]; read at 72 hr): 8 µg/mL
